Results reported in the supplement of paper PMC9931576.
Human monoclonal antibodies against the spike receptor-binding domain (heavy:light variable regions). IC50 against pseudoviruses bearing the spike of naturally observed variants; lower = stronger; >10 µg/ml means not reached at the top dose. No active / inactive call. The stated detection limit is 0.0005 µg/ml; values near or below 0.001 µg/ml lie at the floor of the assay.

B1: BD56-670 (protein)
chain 1: QVQLQESGPGLVKPSQTLSLTCTVSSGSISSGDVYWSWIRQHPGKGLEWIGYINYSGSTYYNPSLRSRVTISIDTSKSQFSLKLSSVTAADTAVYYCARDKAYTNYFDYWGQGALVTVSS
chain 2: SYVLTQPPSVSVAPGKTARISCGGDNIGSKNVHWYQQKPGQAPVLVVYDDSDRPSGIPERFSGSNSGNTATLTISRVEAGDEADYYCQVWDSNNDHSNWVFGGGTKLTVL
B2: BD56-687 (protein)
chain 1: QVQLQESGPGLVKPSQTLSLTCSVSGGSISSGDFYWSWIRQPPGKGLEWIGYIYYTGITYYNASLKSRVTISVDTSKNQFSLKLNSVTAADTAVYSCARFIRSCSSGSCYAFDLWGQGTLVTVSS
chain 2: QSALTQPASVSGSPGQSITISCTGTSSDVGSYTFVSWYQQHPGKAPKLIIYEVSQRPSGISNRFSGSKSGNTASLTISGLHAEDEAYYYCCSYVGSTILFGGGTKLTVL
B3: BD56-678 (protein)
chain 1: QVQLVESGGGVVQPGTSLRLSCAASGFTFRYYGIHWVRQAPGKGLEWVAFIWYDGSNKYYADSVRGRFTISRDNSKNTLYLQMNSLRAEDTAFYYCAKGGDGSGEDDAFDIWGQGTMVTVSS
chain 2: QSVLTQPPSVSGAPGQRVTISCTGGSSNIGADYAVHWYQYLPGTAPKLLIYGNGERPSGVPDRFSGSKSGTSASLVITGLQAEDEADYYCQSYDGSLSGPWVFGGGTKLTVL
B4: BD56-684 (protein)
chain 1: HVQLQESGPGLMKPSETLSLTCTVSGGSISNYFWSWIRQPPGKGLEWIGYTDYRGSTNFNPSLKSRVTISVDTSKNQVSLKLRSVTAADTAVYYCARHFDWLLNDPDAFDVWGQGTLVTVSS
chain 2: EIVLTQSPGTLSLSPGERATLSCRASQSVSSSFLAWYQQKAGQAPRLIIYGAINRAAGIPDRFSGSGSGTDFTLTISRLEPEDFAVYYCQQYDKSPLTFGQGTKVEIK
B5: BD56-679 (protein)
chain 1: QVQLVQSGAEVKKPGSSVKVSCKASGGTLTNYAINWVRQAPGQGLEWMGGIIPMYGSRNYAQRFQGRFTTTADESTSTAYMELRSLRSEDSAIYYCARVGYDVLTGYLDYWGQGTLVTVSS
chain 2: LTQPPSVSVAPGQTASITCGGNDIGSKNVHWYQQKPGQAPVLVVYDDSDRPSGIPGRFSGSNSGNTATLTISRVEAGDEADYYCQVWDSTSDLLYVFGTGTKVIVL
B6: TAU-1115 (protein)
chain 1: EVQLVESGGGLVQPGGSLRLSCAASGFTFSNYVMSWVRQAPGKGLEWVSGISGSGGSTYYADSMKGRFTISRDNSKNTLYLQMNSLRAEDTAVYYCAKDLTRDYYDSSGYQTGAFDIWGQGTMVTVSS
chain 2: SYELNQPPSVSVAPGQTARITCGGNNIGSKSVHWYQQKPGQAPVLVVYDDSDRPSGIPERFSGSNSGNTATLTISRVEAGDEADYYCQVWGGVFGGGTKLTVL
B7: BD56-677 (protein)
chain 1: EVQLLESGGGLVQPGGSLRLSCAASGFTFSSFVMTWVRQAPGKGLEWVSAISGSGSAPYYADSVKGRFTISRDNSKNTLYLQMNTLRAEDTAVYHCAKAIQDPADYFDYWGQGTLVTVSS
chain 2: SYVLTQPPSVSVAPGKTARITCGGNEIGSKSVHWYQQKPGQAPVVVIYYDSDRPSGIPERFSGSNSGNTATLTISRVEAGDEGDYYCQVWDSRWVFGGGTKLTVL

What was measured:
Test in all cases: pseudovirus neutralization IC50; higher = weaker neutralization
[1] = biological target: SARS-CoV-2 Omicron BA.1 spike pseudovirus
Description: (§1)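 Single-round VSV luciferase pseudovirus mixed with antibody dilutions for 1 h and put on Huh-7 cells for about a day; IC50 from the dose curve.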

[2] = biological target: SARS-CoV-2 Omicron BA.2 spike pseudovirus
Description: as §1

[3] = biological target: SARS-CoV-2 Omicron BA.2.75 spike pseudovirus
Description: as §1

[4] = biological target: SARS-CoV-2 Omicron BA.5 spike pseudovirus
Description: as §1

[5] = biological target: SARS-CoV-2 Omicron BQ.1.1 spike pseudovirus
Description: as §1

[6] = biological target: SARS-CoV-2 Omicron XBB spike pseudovirus
Description: as §1

[7] = biological target: SARS-CoV-2 early D614G spike pseudovirus
Description: as §1

| Binder | pseudovirus neutralization IC50 [1] [µg/mL] | pseudovirus neutralization IC50 [2] [µg/mL] | pseudovirus neutralization IC50 [3] [µg/mL] | pseudovirus neutralization IC50 [4] [µg/mL] | pseudovirus neutralization IC50 [5] [µg/mL] | pseudovirus neutralization IC50 [6] [µg/mL] | pseudovirus neutralization IC50 [7] [µg/mL] |
| --- | --- | --- | --- | --- | --- | --- | --- |
| B1 | > 10 | > 10 | > 10 | > 10 | > 10 | > 10 | > 10 |
| B2 | > 10 | > 10 | > 10 | > 10 | > 10 | > 10 | > 10 |
| B3 | 3.35 | 2.79 | 1.46 | 2.31 | > 10 | > 10 | 0.485 |
| B4 | 2.41 | 5.36 | 4.96 | 5 | > 10 | > 10 | 5.68 |
| B5 | 2.5 | 6.17 | 2.62 | 3 | 6.56 | 6.25 | 2.69 |
| B6 | > 10 | > 10 | > 10 | > 10 | > 10 | > 10 | > 10 |
| B7 | 3.95 | 6.57 | 6.54 | 4.72 | > 10 | > 10 | > 10 |
